Literature values as cited in article PMC6117091, “The C. difficile clnRAB operon initiates adaptations to the host environment in response to LL-37” (PLoS Pathogens, 2018).

Conditions: ref [6]–[8]; cited from earlier work

CC[C@H](C)[C@H](NC(=O)[C@H](CCCCN)NC(=O)[C@H](CCC(=O)O)NC(=O)[C@H](CCCCN)NC(=O)[C@H](CO)NC(=O)[C@H](CCCCN)NC(=O)[C@H](CCCNC(=N)N)NC(=O)[C@H](Cc1ccccc1)NC(=O)[C@H](Cc1ccccc1)NC(=O)[C@H](CC(=O)O)NC(=O)CNC(=O)[C@H](CC(C)C)NC(=O)[C@@H](N)CC(C)C)C(=O)NCC(=O)N[C@@H](CCCCN)C(=O)N[C@@H](CCC(=O)O)C(=O)N[C@@H](Cc1ccccc1)C(=O)N[C@@H](CCCCN)C(=O)N[C@@H](CCCNC(=N)N)C(=O)N[C@H](C(=O)N[C@H](C(=O)N[C@@H](CCC(N)=O)C(=O)N[C@@H](CCCNC(=N)N)C(=O)N[C@H](C(=O)N[C@@H](CCCCN)C(=O)N[C@@H](CC(=O)O)C(=O)N[C@@H](Cc1ccccc1)C(=O)N[C@@H](CC(C)C)C(=O)N[C@@H](CCCNC(=N)N)C(=O)N[C@@H](CC(N)=O)C(=O)N[C@@H](CC(C)C)C(=O)N[C@H](C(=O)N1CCC[C@H]1C(=O)N[C@@H](CCCNC(=N)N)C(=O)N[C@H](C(=O)N[C@@H](CCC(=O)O)C(=O)N[C@@H](CO)C(=O)O)[C@@H](C)O)C(C)C)[C@@H](C)CC)C(C)C)[C@@H](C)CC [LL-37]
concentration in neutrophil granules: ~ 6 μg/ml | level in the lungs of cystic fibrosis patients: 15 µg/mL
